Data as given in patent US20230304010A1, “COMPOSITIONS AND METHODS FOR TREATING VIRAL INFECTIONS” (priority 2020, published 2023).

B1: Seq38 (LNCOV-30) (peptide)
peptide: NMTQGFWENPGGPTAWDLGKLWRALWRLWRSLWRLLWK
modifications: not checked
B2: Seq11 (LNCOV-9) (peptide)
peptide: TNGVGYQPY
modifications: not checked
B3: Seq8 (LNCOV-6) (peptide)
peptide: YFPLQSYGFQPTNGVGYQ
modifications: not checked
B4: Seq9 (LNCOV-7) (peptide)
peptide: SYGFQPTNGV
modifications: not checked
B5: seq3 (LNCOV-1) (peptide)
peptide: GNYNYLYRL
modifications: not checked
B6: Seq5 (LNCOV-3) (peptide)
peptide: STEYQAGST
modifications: not checked
B7: Seq6 (LNCOV-4) (peptide)
peptide: CNGVEGFNC
modifications: not checked
B8: Seq2 (LNCOV-0) (peptide)
peptide: KVGGNYNYL
modifications: not checked
B9: Seq1 (LNCOV-01) (peptide)
peptide: SKVGGNYNYLYR
modifications: not checked
B10: Seq4 (LNCOV-2) (peptide)
peptide: GGNYNYLYRLFRK
modifications: not checked
B11: Seq10 (LNCOV-8) (peptide)
peptide: GFQPTNGVK
modifications: not checked
B12: Seq7 (LNCOV-5) (peptide)
peptide: VEGFNCYFP
modifications: not checked

What follows are binders tested against SARS-CoV-2 Spike (SARS-CoV-2), P0DTC2 (assay: inhibitor screening kit; ACE2:SARS-CoV-2 Spike (Example 4 assay)).
Work on B1 yielded an IC50 of 0.103 µM.

These binders were tested against ACE2, Q9BYF1 in the same assay as above.
For B2, the IC50 was > 1 µM.
For B3, the IC50 was > 10 µM.
For B4, the IC50 was > 10 µM.
In the case of B5, the IC50 is reported as > 10 µM.
For B6, the IC50 was > 10 µM.
With B7 the IC50 was > 10 µM.
With B8 the IC50 was > 10 µM.
B9 was tested, and the IC50 was > 10 µM.
In the case of B10, the IC50 is reported as > 10 µM.
With B11 the IC50 was > 10 µM.
For B12, the IC50 was > 10 µM.

These binders were tested against SARS-CoV-2 Spike (SARS-CoV-2), P0DTC2 (assay: inhibitor screening kit; SARS-CoV-2 Spike:ACE2 (Example 3 assay)).
Binder B1 has an IC50 of 0.214 µM.

What follows are binders tested against ACE2, Q9BYF1 in the same assay as above.
For B3, the IC50 was > 10 µM.
With B4 the IC50 was > 10 µM.
B5 was tested, and the IC50 was > 10 µM.
B6 was tested, and the IC50 was > 10 µM.
For B7, the IC50 was > 10 µM.
In the case of B8, the IC50 is reported as > 10 µM.
With B9 the IC50 was > 10 µM.
For B10, the IC50 was > 10 µM.
With B11 the IC50 was > 10 µM.
With B12 the IC50 was > 10 µM.
